## Single amino acid changes in Zika NS2B-NS3 and viral growth

The scanned region of Zika virus MR766 is shown below (positions 1-308): NS2B is 2-131, NS3 begins at position 132.
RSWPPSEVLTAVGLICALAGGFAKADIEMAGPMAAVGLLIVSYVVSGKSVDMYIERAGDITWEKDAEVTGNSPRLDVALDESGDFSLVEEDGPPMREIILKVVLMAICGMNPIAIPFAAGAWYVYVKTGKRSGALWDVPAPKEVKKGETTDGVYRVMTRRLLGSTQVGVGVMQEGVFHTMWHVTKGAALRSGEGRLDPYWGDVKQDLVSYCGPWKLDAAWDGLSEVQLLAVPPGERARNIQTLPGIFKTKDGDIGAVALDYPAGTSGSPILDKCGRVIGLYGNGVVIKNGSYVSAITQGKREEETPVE

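Pools of virus carrying all single amino acid changes were selected for growth in Huh-7.5 cells. Sequencing of three replicate libraries (two for positions 207-308) was averaged into one effect per change. The study looked for pockets that tolerate few changes, as a guide for inhibitor design.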

Scale: log2 effect, wild type = 0; the lower, the more harmful to the virus. Each entry names the wild-type residue, its position and the residue put in its place.

mutation,log2 growth effect
A118*,-6.23
A118C,-1.09
A118D,-5.92
A118E,-5.36
A118F,-5.23
A118G,-2.46
A118H,-6.01
A118I,-5.39
A118K,-5.39
A118L,-6.63
A118M,-5.04
A118N,-5.85
A118P,-6.71
A118Q,-5.69
A118R,-7.15
A118S,-0.08
A118T,-3.76
A118V,-4.74
A118W,-5.43
A118Y,-5.46
A119*,-6.52
A119C,-1.46
A119D,-5.40
A119E,-5.70
A119F,-5.08
A119G,-2.31
A119H,-5.76
A119I,-2.44
A119K,-5.88
A119L,-2.64
A119M,-2.36
A119N,-5.90
A119P,-6.92
A119Q,-5.17
A119R,-7.02
A119S,-0.88
A119T,-1.32
A119V,-0.81
A119W,-2.47
A119Y,-3.59
G120*,-7.32
G120A,-1.14
G120C,-0.68
G120D,-5.88
G120E,-5.21
G120F,-1.06
G120H,-6.40
G120I,-2.04
G120K,-6.02
G120L,-2.05
G120M,-0.60
G120N,-6.70
G120P,-7.19
G120Q,-6.13
G120R,-7.37
G120S,-0.77
G120T,-0.75
G120V,-1.06
G120W,-3.06
G120Y,-3.10
A121*,-7.09
A121C,-1.32
A121D,-4.75
A121E,-5.70
A121F,-1.49
A121G,-1.81
A121H,-5.36
A121I,-1.33
A121K,-5.92
A121L,-1.32
A121M,-1.27
A121N,-5.41
A121P,-7.43
A121Q,-6.13
A121R,-7.31
A121S,-1.34
A121T,-0.60
A121V,-0.80
A121W,-3.46
A121Y,-4.90
W122*,-7.70
W122A,-6.12
W122C,-5.53
W122D,-3.50
W122E,-5.14
W122F,-2.19
W122G,-6.42
W122H,-4.71
W122I,-5.40
W122K,-5.95
W122L,-5.19
W122M,-4.06
W122N,-5.27
W122P,-6.70
W122Q,-5.99
W122R,-7.58
W122S,-7.28
W122T,-6.58
W122V,-6.08
W122Y,-2.89
Y123*,-6.59
Y123A,-1.52
Y123C,-2.34
Y123D,-5.38
Y123E,-5.69
Y123F,-0.17
Y123G,-4.25
Y123H,-1.99
Y123I,-1.96
Y123K,-5.45
Y123L,-0.52
Y123M,-0.13
Y123N,-6.24
Y123P,-7.04
Y123Q,-2.61
Y123R,-7.18
Y123S,-4.76
Y123T,-2.94
Y123V,-2.57
Y123W,-1.65

The last 5 entries again:

| mutation | log2 growth effect |
|---|---|
| Y123R | -7.18 |
| Y123S | -4.76 |
| Y123T | -2.94 |
| Y123V | -2.57 |
| Y123W | -1.65 |

Stop codons (*) centre on -7 and mark the level of dead virus. Values above 0 are not proof of better growth: six high scorers were tested one by one, five grew less well than wild type and one about as well. The authors count -1 or higher as tolerated. Position 1 is the last residue of NS2A. The region was split into three libraries (1-103, 104-206, 207-308).

Data from the supplement of Ni et al. 2025, doi:10.1038/s41467-025-63602-z.